From PMC8001737, “Isolation and Characterization of Cross-Reactive Human Monoclonal Antibodies That Potently Neutralize Australian Bat Lyssavirus Variants and Other Phylogroup 1 Lyssaviruses” (Viruses, 2021)

Molecular target: ABLVp glycoprotein (G), on recombinant vesicular stomatitis virus rVSV-ABLVp-G (Australian bat lyssavirus (isolate …, UniProt Q8JTH0, strain))

B1: human monoclonal antibody A6 (IgG1) (antibody, V domains shown)
VH: EVQLVQSGAEVKKPGASVKVSCKASGYDFTDFYVHWVRQAPGQRLEWMGWINPGSGATDYAQKFQGRVTMTRDTSISTAYMEVSRLRSDDTAMYYCARPNAPRYMERLSATPSFDSWGQGTLVTVS
VL: EIVLTQSPGTLSLSPGEGATLSCRASQSVSSINLAWYQQKPGQAPRLLMYGASTRATGIPDRFSGSGSGTDFTLTISRLESEDFAVYYCQQYGSSPLTFGGGTKVEIK
  binding result: binds
